# PubChem BioAssay AID1259414, Drosophila RNAi Screening Center – 2018
# Screen: 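Genome-wide screen for host control of endosymbiont load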 (primary screen)
# Cells: Drosophila JW18 cells infected with Wolbachia
# Reagent: long dsRNA against Drosophila genes, 0.25 µg dsRNA per well of a 384-well plate
# Duration: 5 days
# Conditions: cells persistently infected with Wolbachia before knock-down; no added drug
# Measurement: 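Automated imaging of bacterial rRNA staining divided by host cell count, reported as plate-normalised robust z-score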
# Reading the numbers: Wolbachia per cell robust z: higher = more Wolbachia per host cell than the plate typical
# Rule for the call: 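Active if absolute robust z reaches 1.5 in two or more of three replicates, leaving out multi- or no-target dsRNAs, genes unexpressed in JW18 and A1 wells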
# In all, the deposit lists about 24,000 reagents; this is a random part of those with a known target gene and a result. Of all reagents, about 1,210 (5%) got an active call. 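Inactive calls also include excluded dsRNAs with several or no targets, genes unexpressed in JW18, and well A1, regardless of score.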 A number with no mark means an inactive call. Names joined by + are all predicted targets of the reagent.
target,DRSC id,"Wolbachia per cell robust z, rep 1","Wolbachia per cell robust z, rep 2","Wolbachia per cell robust z, rep 3"
l(3)72Dp (GeneID 317887),DRSC10477,0.287,1.47,0.716
CG10375 (GeneID 42812),DRSC28520,0.876,0.253,0.815
vtd (GeneID 3354896),DRSC38781,1.39,0.0678,0.0442
CG12479 (GeneID 50344),DRSC19459,-0.125,-3.58,0.749
CG12479 (GeneID 50344),DRSC41495,-0.449,0.825,-2.14
Or33b (GeneID 34602),DRSC03387,1.04,0.479,-5.94
CG1092 (GeneID 40538),DRSC12151,0.141,-1.88,-0.0694
CG1092 (GeneID 40538),DRSC24479,-0.683,-1.85,0.036
yellow-g2 (GeneID 38295),DRSC08338,0.662,0.166,0.34
CG17472 (GeneID 35320),DRSC02622,-0.373,0.376,1.41
bonsai (GeneID 37587),DRSC04453,-1.61,0.203,-0.0623
bonsai (GeneID 37587),DRSC24153,0.744,-0.0818,0.532
CG2938 (GeneID 31347),DRSC18243,-0.233,-1.9,2.03
CG2938 (GeneID 31347),DRSC27919,-1.08,-1,-0.375
CG9356 (GeneID 41122),DRSC16476,-2.6 (active),0.808,-4.57
HisT (GeneID 35697),DRSC05051,1.64,0.608,1.14
HisT (GeneID 35697),DRSC06405,1.45,-0.358,-0.199
tral (GeneID 39430),DRSC09779,0.626,1.1,-0.778
tral (GeneID 39430),DRSC25049,-0.591,-3.23,-0.588
CR43670 + CR43669 + grp + 1 more,DRSC03541,1.59,1.38,0.789
CG17249 (GeneID 38201),DRSC08517,0.658,0.849,-0.0751
CG31777 (GeneID 261617),DRSC00201,0.498,0.319,0.247
DIP2 (GeneID 252479),DRSC08582,-1.13,-0.599,1.01
dap (GeneID 36001),DRSC07601,-1.23,-0.953,-0.228
dap (GeneID 36001),DRSC40812,0.611,-0.276,-1.3
CG5225 (GeneID 42053),DRSC24962,1.38,1.01,0.645

6 neighbouring entries from above:
target,DRSC id,"Wolbachia per cell robust z, rep 1","Wolbachia per cell robust z, rep 2","Wolbachia per cell robust z, rep 3"
CG1092 (GeneID 40538),DRSC24479,-0.683,-1.85,0.036
yellow-g2 (GeneID 38295),DRSC08338,0.662,0.166,0.34
CG17472 (GeneID 35320),DRSC02622,-0.373,0.376,1.41
bonsai (GeneID 37587),DRSC04453,-1.61,0.203,-0.0623
bonsai (GeneID 37587),DRSC24153,0.744,-0.0818,0.532
CG2938 (GeneID 31347),DRSC18243,-0.233,-1.9,2.03

The list goes on.
target,DRSC id,"Wolbachia per cell robust z, rep 1","Wolbachia per cell robust z, rep 2","Wolbachia per cell robust z, rep 3"
Sry-beta (GeneID 43570),DRSC16868,-0.588,-0.0916,-0.42
Sry-beta (GeneID 43570),DRSC24321,0.456,0.00352,-0.385
CG5937 (GeneID 31537),DRSC18392,-0.0701,0.217,-1.17
CG5937 (GeneID 31537),DRSC26696,0.0304,0.993,0.326
rk (GeneID 34819),DRSC03602,-0.47,0.122,-0.398
ms(2)34Fe (GeneID 34833),DRSC01905,0.0595,-0.169,-1.21
PH4alphaNE1 (GeneID 43625),DRSC16546,0.104,-0.636,0.00468
PH4alphaNE1 (GeneID 43625),DRSC26942,-0.042,0.33,1.76
CG34404 (GeneID 41873),DRSC15335,-1.35 (active),-1.67,-2.03
CG34404 (GeneID 41873),DRSC15978,-0.259,-0.0444,0.285
CG34404 (GeneID 41873),DRSC25463,-0.707,1.13,-0.18
trv (GeneID 43362),DRSC13846,-0.849,-3.97,-1.96
trv (GeneID 43362),DRSC14560,0.333,-1.42,-0.0869
trv (GeneID 43362),DRSC14561,0.451,-0.227,-0.706
trv (GeneID 43362),DRSC25527,0.44,0.85,0.494
trv (GeneID 43362),DRSC25789,0.263,-0.164,0.987
CG9297 (GeneID 41688),DRSC16469,0.734,1.42,-0.36
CG9297 (GeneID 41688),DRSC25256,-0.487,0.352,1.81
CG11147 (GeneID 33803),DRSC02129,0.4,0.642,-1.1
Saysd1 (GeneID 43029),DRSC14664,0.726,0.238,-1.48
